Compound potency records, mixed from different reports. Data source: NIAID ChemDB in PubChem.

Common to all: growth or infection tests

a–b is a range or a potency band. Rows are shuffled and stem from different studies. MIC50, MIC90 and the like: level of inhibition, or share of isolates inhibited. Percent inhibition refers to the dose given; in toxicity tests it is the harm to the cells. ECn is the concentration giving n% inhibition of infection, replication or growth.

{"smiles": "CC[C@@H](C(=O)[C@@H](C)[C@@H](O)[C@H](C)CCc1ccc(C)c(O)c1C(=O)O)[C@H]1O[C@](CC)([C@H]2CC[C@](O)(CC)[C@H](C)O2)C[C@@H]1C", "strain or isolate": "IOWA", "tested at": "1 µg/mL", "cell line": "MDCK", "method": "luminescence", "measure": "inhibition", "agent": "Cryptosporidium parvum", "result": "84.6%"}
{"smiles": "C[C@@H](c1ncncc1F)[C@](O)(Cn1cncn1)c1ccc(F)cc1F", "strain or isolate": "CBS 11816", "method": "broth dilution", "measure": "MIC", "agent": "Cryptococcus gattii", "result": "1 µg/mL"}
{"smiles": "CCC(C)n1ncn(-c2ccc(N3CCN(c4ccc(OC[C@H]5CO[C@](Cn6cncn6)(c6ccc(Cl)cc6Cl)O5)cc4)CC3)cc2)c1=O", "strain or isolate": "VG IIb", "method": "broth dilution", "measure": "MIC50", "agent": "Cryptococcus gattii", "result": "0.25 µg/mL"}
{"smiles": "Cn1ncc2c1C(=O)c1cccc(Br)c1C2=O", "tested at": "10 µM", "measure": "inhibition", "agent": "Cryptosporidium parvum", "result": "<10%"}
{"smiles": "Oc1ccccc1C=Nc1ccccc1O", "strain or isolate": "L24/01", "measure": "MIC99", "agent": "Cryptococcus gattii", "result": "5.7 µg/mL"}
{"smiles": "Cn1nc(Cc2ccc(Cl)cc2)c2ccccc2c1=O", "strain or isolate": "Clinical isolate (IM 000319)", "method": "broth dilution", "measure": "MIC50", "agent": "Cryptococcus neoformans", "result": "31.3 µg/mL"}
{"smiles": "O=[N+]([O-])c1ccc(C=Nc2ccccc2O)cc1", "strain or isolate": "27JF", "measure": "MIC99", "agent": "Cryptococcus neoformans", "result": "32 µg/mL"}
{"smiles": "C[C@@H](c1ncncc1F)[C@](O)(Cn1cncn1)c1ccc(F)cc1F", "strain or isolate": "Clinical isolate (IM 972724)", "method": "broth dilution", "measure": "MIC", "agent": "Cryptococcus neoformans", "result": "<0.015 µg/mL"}
{"smiles": "Cn1cc2c(n1)C(=O)c1cc3ccccc3c(O)c1C2=O", "tested at": "100 µM", "measure": "inhibition", "agent": "Cryptosporidium parvum", "result": "<10%"}
{"smiles": "Oc1ccccc1N=Cc1ccc2c(c1)OCO2", "strain or isolate": "LMM 820", "measure": "MIC99", "agent": "Cryptococcus neoformans", "result": "4 µg/mL"}
{"smiles": "COc1cc(C)cc2c1C(=O)c1cnn(C)c1C2=O", "tested at": "10 µM", "measure": "inhibition", "agent": "Cryptosporidium parvum", "result": "<10%"}
{"smiles": "Oc1ccccc1N=Cc1cccc(O)c1O", "strain or isolate": "L-28/02", "measure": "MIC99", "agent": "Cryptococcus gattii", "result": "4 µg/mL"}
{"smiles": "CN[C@H]1CC[C@@H](c2ccc(Cl)c(Cl)c2)c2ccccc21", "strain or isolate": "3-17", "method": "broth dilution", "measure": "MFC", "agent": "Cryptococcus neoformans", "result": "8 µg/mL"}
{"smiles": "CC(=O)Oc1cccc2c1C(=O)c1c(cnn1C)C2=O", "measure": "EC50", "agent": "Cryptosporidium parvum", "result": "10–25 µM"}

The last 2 rows once more:

{"smiles": "CN[C@H]1CC[C@@H](c2ccc(Cl)c(Cl)c2)c2ccccc21", "strain or isolate": "3-17", "method": "broth dilution", "measure": "MFC", "agent": "Cryptococcus neoformans", "result": "8 µg/mL"}
{"smiles": "CC(=O)Oc1cccc2c1C(=O)c1c(cnn1C)C2=O", "measure": "EC50", "agent": "Cryptosporidium parvum", "result": "10–25 µM"}